Assay: Selectivity index, ratio of CC50 for african green monkey Vero 76 cells to EC50 for Venezuelan equine encephalitis virus TC83
Format: toxicity, cell-based

With `CN1CCN(C)/C(=N/c2ccc([N+](=O)[O-])cc2C(=O)Nc2ccccc2)C1` the Ratio CC50/EC50 was > 1670.

— ChEMBL document CHEMBL3352189 (J Med Chem, 2014)
